# Reference: PubChem BioAssay AID2629 (Broad Institute, 2010)
# The chains behind the UniProt entries cited, without tags or fusion partners.
# UniProt Q9QR71, whole entry: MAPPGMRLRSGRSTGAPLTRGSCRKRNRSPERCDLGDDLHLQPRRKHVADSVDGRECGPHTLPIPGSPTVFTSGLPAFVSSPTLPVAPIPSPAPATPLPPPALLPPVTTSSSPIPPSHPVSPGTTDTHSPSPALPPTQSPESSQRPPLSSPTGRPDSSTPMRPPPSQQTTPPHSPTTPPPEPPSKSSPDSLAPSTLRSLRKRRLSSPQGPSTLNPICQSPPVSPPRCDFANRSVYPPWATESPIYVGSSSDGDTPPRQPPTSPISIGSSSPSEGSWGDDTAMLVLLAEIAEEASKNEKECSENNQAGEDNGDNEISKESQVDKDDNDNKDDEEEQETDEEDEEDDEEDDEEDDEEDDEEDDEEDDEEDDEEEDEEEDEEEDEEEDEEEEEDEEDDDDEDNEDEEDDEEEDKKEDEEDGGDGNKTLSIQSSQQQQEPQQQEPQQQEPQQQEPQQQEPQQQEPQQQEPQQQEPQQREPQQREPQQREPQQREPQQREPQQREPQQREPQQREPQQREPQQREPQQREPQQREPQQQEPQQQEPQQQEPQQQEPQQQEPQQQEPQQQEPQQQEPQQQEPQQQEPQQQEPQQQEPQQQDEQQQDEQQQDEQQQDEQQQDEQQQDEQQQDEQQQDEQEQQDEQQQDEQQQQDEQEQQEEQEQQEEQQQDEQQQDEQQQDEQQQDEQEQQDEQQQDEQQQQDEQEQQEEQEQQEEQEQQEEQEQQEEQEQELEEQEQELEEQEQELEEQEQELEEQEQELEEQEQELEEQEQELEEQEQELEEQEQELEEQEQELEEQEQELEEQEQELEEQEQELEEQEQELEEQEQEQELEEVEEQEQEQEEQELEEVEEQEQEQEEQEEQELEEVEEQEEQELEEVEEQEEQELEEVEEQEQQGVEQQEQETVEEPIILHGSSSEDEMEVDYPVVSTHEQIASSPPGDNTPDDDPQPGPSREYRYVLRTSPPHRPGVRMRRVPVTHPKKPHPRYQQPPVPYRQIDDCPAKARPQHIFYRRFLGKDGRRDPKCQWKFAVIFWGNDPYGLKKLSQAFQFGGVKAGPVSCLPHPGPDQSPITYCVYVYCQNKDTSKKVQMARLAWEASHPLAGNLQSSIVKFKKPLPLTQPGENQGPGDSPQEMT
# The list shows a part of the results, in another mix than the full data. Some salts or complexes appear as unconnected parts, following the source record. Calls of active or inactive are those of the source. No stated cut-off is given here; in the data, active means inhibition mostly above about 10% (no sharp cut-off); inactive means mostly below about 6.7%.
# Target: Protein LANA1 (Human herpesvirus 8 type P (isolate GK18)) (UniProt Q9QR71)
# Assay: blockers of LANA interaction with H2A/H2B – biochemical, FP readout, HTS, primary screen (AID 2629)
# Settings: cell-free LANA-H2A/H2B peptide, fluorescence polarization; hits give high values; concentration not given here
row,Structure (SMILES),inhibition
1,CCC(=O)N1C2C3N(C(=O)CC)C1C1N(C(=O)CC)C(C(N1C(=O)CC)N3C(=O)CC)N2C(=O)CC,inactive: -3.84%
2,CCN(CC)CCCOC(=O)C(O)(c1ccccc1)C1CCCCC1 (centres undefined),inactive: -3.87%
3,COC(=O)c1cc2c(s1)N=C(c1ccccc1)N(C)P2(=O)N1CCOCC1 (centres undefined),inactive: 7.44%
4,Cc1ccc(OP(=O)(Nc2ccccn2)Oc2ccc(C)cc2)cc1,inactive: 1.51%
5,CC(=O)NC(SC(=S)N(CC(C)C)CC(C)C)C(Cl)(Cl)Cl (centres undefined),inactive: 0.0788%
6,CC(NC(=O)COC(=O)C(O)(c1ccccc1)c1ccccc1)c1ccccc1 (centres undefined),inactive: 3.73%
7,Cc1ccccc1OP(=O)(Nc1ccccn1)Oc1ccccc1C,inactive: 5.19%
8,CCCCCOc1ccc(NP(C)(=O)Oc2ccc(Cl)cc2Cl)cc1 (centres undefined),inactive: -1%
9,O=[N+]([O-])c1cc([N+](=O)[O-])c(OC2CCCCC2O)c([N+](=O)[O-])c1 (centres undefined),inactive: -5.11%
10,CN(C)C(=O)Oc1noc2ccccc12,inactive: -0.167%
11,CP(=O)(Nc1ccccc1)Oc1ccc(F)cc1 (centres undefined),inactive: -1.41%
12,O=P1(Nc2nc3ccc(Cl)cc3s2)COc2ccccc2O1 (centres undefined),inactive: -0.841%
13,CCOc1ccc(C2=NCC(CBr)S2)cc1 (centres undefined),inactive: -0.974%
14,CC(C)(C)C(=O)NC(Sc1ccccc1)C(Cl)(Cl)Cl (centres undefined),inactive: 1.72%
15,CC(C)c1ccc(OP(C)(=O)Nc2ccc(SC(F)(F)F)cc2)cc1 (centres undefined),inactive: -0.344%
16,CP(=O)(Nc1ccccc1F)Oc1ccccc1 (centres undefined),inactive: -2.8%
17,O=C(OCCN1CCN(CCOCc2ccccc2)CC1)C(O)(c1ccccc1)c1ccccc1,inactive: -1.16%
18,C[C@H]1OP(=O)(Oc2ccccc2)C[C@@H]2O[C@@H]21 (some centres undefined),inactive: 3.73%
19,C[C@@H]1C=CCP(=O)(Oc2ccccc2)O1 (some centres undefined),inactive: -1.26%
20,CC(=O)c1ccc(N2CC2c2ccncc2)cc1 (centres undefined),inactive: -1.94%
21,O=C(OC1CN2CCC1CC2)c1ccc([N+](=O)[O-])cc1 (centres undefined),inactive: 10.2%
22,CC(=O)Nc1ccc([As](=O)(O)O)c(O)c1,inactive: 0.623%
23,COc1ccc2c(c1O)-c1c(O)c(OC)cc3c1[C@H](C2)[N+](C)(C)CC3.O=[N+]([O-])c1cc([N+](=O)[O-])c([O-])c([N+](=O)[O-])c1[O-],inactive: 0.368%

row,Structure (SMILES),inhibition
1,CC(=O)Nc1ccc(Oc2c([N+](=O)[O-])cc([N+](=O)[O-])cc2[N+](=O)[O-])cc1,inactive: 1.79%
2,CN(C(=O)Cc1ccc(Cl)c(Cl)c1)[C@H]1CCCC[C@H]1N1CCCC1,inactive: -4.66%
3,COc1ccccc1OP(C)(=O)Nc1ccc(Br)cc1 (centres undefined),inactive: -5%
4,Cc1ccc(N/C(=N/P(=O)(N2CCOCC2)N2CCOCC2)N2CCOCC2)cc1,inactive: 2.85%
5,NC(=O)c1cc([N+](=O)[O-])cc([N+](=O)[O-])c1N,inactive: 5.09%
6,CN1CCCC(OC(=O)C(c2ccccc2)c2ccccc2)C1 (centres undefined),inactive: -0.0688%
7,CN(C)CCOC(=O)C(O)(c1ccccc1)C1CCCC1 (centres undefined),inactive: -0.236%
8,Clc1ccc(Cl)c(NC2=NCC(CBr)S2)c1 (centres undefined),inactive: -3.27%
9,COc1ccccc1OP(=O)(Nc1ccc(C)cn1)Oc1ccccc1OC,inactive: 2.93%
10,COc1ccc(OP(C)(=O)Nc2ccccn2)cc1 (centres undefined),inactive: 0.601%
11,Cc1ccc(OP(=O)(Nc2nccs2)Oc2ccc(C)cc2)cc1,inactive: 4.15%
12,Oc1ccccc1CNc1ccccn1,inactive: 1.08%
13,O=C(NC(Sc1ccncn1)C(Cl)(Cl)Cl)c1ccccc1 (centres undefined),inactive: -4.49%
14,Cc1c2non([O-])c-2c(C)[n+](=O)[n+]1[O-],inactive: -1.8%
15,Nc1cc(N)c2nonc2c1[N+](=O)[O-],inactive: -4.61%
16,Cc1c(NP(C)(=O)Oc2ccc(C(C)C)cc2)c(=O)n(-c2ccccc2)n1C (centres undefined),inactive: 1.37%
17,O=[N+]([O-])c1cc([N+](=O)[O-])c(Nc2ccccn2)c([N+](=O)[O-])c1,inactive: 5.11%
18,CC(C)CC(=O)NC(Sc1ccc(Cl)cc1)C(Cl)(Cl)Cl (centres undefined),inactive: -4.12%
19,CCc1ccc(OP(C)(=O)O)cc1,inactive: -1.11%
20,CP(=O)(Nc1ccccn1)Oc1ccccc1 (centres undefined),inactive: -0.603%
21,COc1ccccc1OP(C)(=O)Nc1ccc(C)cc1C (centres undefined),inactive: -2.77%
22,O=P(Nc1nc2ccc(Cl)cc2s1)(c1ccccc1)c1ccccc1,inactive: -2.48%
23,Cc1cc(C)cc(OP(C)(=O)Nc2cccc(C(F)(F)F)c2)c1 (centres undefined),inactive: 1.3%

row,Structure (SMILES),inhibition
1,CC(=O)Nc1ccc([As](=O)(O)O)cc1,inactive: 2.64%
2,O=C(O)c1ccccc1[As](=O)(O)O,inactive: 0.643%
3,COc1ccc(OP(C)(=O)Nc2ccccc2Br)cc1 (centres undefined),inactive: -0.905%
4,Cc1cc(SC(NC(=O)c2ccc(F)cc2)C(Cl)(Cl)Cl)ncn1 (centres undefined),inactive: 0.824%
5,CCOP(=O)(Nc1ccccc1)OCC,inactive: 3.54%
6,COc1ccccc1OP(C)(=O)Nc1ccc(C)c(C)c1 (centres undefined),inactive: 0.306%
7,CN(C(=O)Cc1ccc(Cl)c(Cl)c1)[C@H]1CCCC[C@@H]1N1CCCC1,inactive: 3.6%
8,Cc1ccc(NP(=O)(Oc2ccccc2F)Oc2ccccc2F)nc1,inactive: -0.148%
9,O=[N+]([O-])c1cc([N+](=O)[O-])c(CCN2CCOCC2)c([N+](=O)[O-])c1,inactive: 2.76%
10,Cc1nc2ccc3ccccc3c2o1.O=[N+]([O-])c1cc([N+](=O)[O-])c(O)c([N+](=O)[O-])c1,inactive: -0.445%
11,Nc1cccc2ccc([As](=O)(O)O)cc12,inactive: 4.61%
12,CP(=O)(Nc1ccc(Cl)cc1Cl)Oc1ccccc1 (centres undefined),inactive: -0.598%
13,CP(=O)(OCCOc1ccccc1)OCCOc1ccccc1,inactive: 3.29%
14,CCN(N=Nc1nonc1N)c1nonc1N,inactive: 1.11%
15,Nc1ccc2c(ccc3cccnc32)n1.O=[N+]([O-])c1cc([N+](=O)[O-])c(O)c([N+](=O)[O-])c1,inactive: -1.05%
16,CP(=O)(OC12CC3CC(CC(C3)C1)C2)OC12CC3CC(CC(C3)C1)C2,inactive: 1.72%
17,CCOC(=O)c1ccc(NP(C)(=O)Oc2ccc(Cl)cc2)cc1 (centres undefined),inactive: -6.65%
18,O=C(Nc1cc([As](=O)(O)O)ccc1O)c1ccccc1,inactive: -1.25%
19,O=[N+]([O-])c1ncn(CCn2ncnc2[N+](=O)[O-])n1,inactive: 0.788%
20,CC(C)(C)C(=O)NC(Sc1ccncn1)C(Cl)(Cl)Cl (centres undefined),inactive: 1.86%
21,O=C(O)CNc1ccc([As](=O)(O)O)cc1,inactive: 1.57%
22,O=[N+]([O-])c1cccc(NC2=NCC(CBr)S2)c1 (centres undefined),inactive: 0.198%
23,CCN(CC)CC(O)COC(=O)C(O)(c1ccccc1)C1CCCCC1 (centres undefined),inactive: 0.169%

row,Structure (SMILES),inhibition
1,COc1ccc(C2=NCC(CBr)S2)cc1 (centres undefined),inactive: 0.817%
2,CP(=O)(Oc1ccccc1)N1CCOC1=O (centres undefined),inactive: 0.403%
3,Cc1ccc(NP(=O)(Oc2ccccc2)Oc2ccccc2)nc1,inactive: -7.07%
4,CCc1ccc(OP(C)(=O)Nc2cccnc2)cc1 (centres undefined),inactive: 3.46%
5,O=[N+]([O-])c1cc([N+](=O)[O-])c(CCNc2ccccc2)c([N+](=O)[O-])c1,inactive: -0.36%
6,CCc1nc2c(n1)c1c(non1O)c1c2no[n+]1[O-],inactive: -1.84%
7,CC(=O)N1C2C3N(C(C)=O)C1C1N(C(C)=O)C(C(N1C(C)=O)N3C(C)=O)N2C(C)=O,inactive: 1.85%
8,O=[N+]([O-])c1cccc2n[nH]nc12,inactive: 3.43%
9,COc1ccccc1OP(C)(=O)Nc1c(C)n(C)n(-c2ccccc2)c1=O (centres undefined),inactive: -0.158%
10,O=C(OCCCN1CCCC1)C(O)(c1ccccc1)C1CCCCC1 (centres undefined),inactive: -2.76%
11,CCN(/C(=N/P(=O)(N1CCOCC1)N1CCOCC1)N1CCOCC1)c1ccc(OC)cc1,inactive: 6.48%
12,CP(=O)(Nc1ccc(Cl)cc1)Oc1ccc(F)cc1 (centres undefined),inactive: 1.93%
13,COc1ccccc1OP(C)(=O)Nc1ccccc1Br (centres undefined),inactive: -2.98%
14,Nc1ccc([As](=O)(O)c2ccc(N)cc2)cc1,inactive: 13.2%
15,CC(C)(C)c1ccc(OP(C)(=O)O)cc1,inactive: -0.425%
16,C[N+]1=C2C=CC=CC=C2SC12C([N+](=O)[O-])=CC([N+](=O)[O-])=C[C-]2[N+](=O)[O-] (centres undefined),inactive: -0.652%
17,CC1CCN(C(=O)Oc2c(Cl)cc(Cl)c3cccnc23)CC1,inactive: -0.27%
18,CC(C)=N/N=C(\N)N[N+](=O)[O-],inactive: 0.0112%
19,CN(C)C(=O)c1c([N+](=O)[O-])cc([N+](=O)[O-])cc1[N+](=O)[O-],inactive: -2.02%
20,CN(C)C(=O)OCCc1n(C)cc[n+]1C,inactive: 1.35%
